System: isolated environmental strains (Pseudomonas spp., Rhodococcus sp.)
Test: Degradation of individual identified NA compounds by the five isolated strains (heat maps, FIG. 2B)
Conditions: C16 and C18 at DBE=1

For CCCCCCCCCCCCCCCC(=O)O [palmitic acid], the “degradation in all samples” value was “high shown degradation”.
For CCCCCCCCCCCCCCCCCC(=O)O [stearic acid], the “degradation in all samples” value was “high shown degradation”.
